Reference: patent US6780414B2 (priority 1998, dated 2004)

Columns and labels:
S. flexneri 2457T = conditions: T84 monolayers, mean ± SEM
[1] = test system: S. flexneri-induced PMN transepithelial migration; experiment: PMN transepithelial migration assay across T84 cell monolayers; conditions: apical surface pretreated with 300 μM cadaverine, 37° C., 30 min, washed, then infection (FIG. 4)

SMILES: NCCCCCN [cadaverine, 1,5-diaminopentane]
- % Association 2457T (S. flexneri 2457T; 100 μM cadaverine): 4.49 ± 0.19%
- % Internalization 2457T (S. flexneri 2457T; 100 μM cadaverine): 0.52 ± 0.01%
- % Association 2457T (S. flexneri 2457T; 300 μM cadaverine): 6.01 ± 0.72%
- % Internalization 2457T (S. flexneri 2457T; 300 μM cadaverine): 0.40 ± 0.11%
- % Association 2457T (S. flexneri 2457T; 500 μM cadaverine): 4.00 ± 0.70%
- % Internalization 2457T (S. flexneri 2457T; 500 μM cadaverine): 0.50 ± 0.11%
- ability of 2457T to induce PMN transepithelial migration [1]: dramatically reduced

Like-named read-outs stand apart in the source and are kept apart here.
